From ChEMBL document CHEMBL3853327 (J Med Chem, 2016)

Biological target: Human immunodeficiency virus type 1 reverse transcriptase (Human immunodeficiency virus 1, UniProt Q72547, K103N/Y181C)
Assay: Inhibition of recombinant HIV1 reverse transcriptase K103N/Y181C double mutant using DIG-dUTP/biotin-dUTP/dTTP assessed as suppression of biotin-dUTP incorporation after 1 hr by ELISA

How did the IC50 turn out when `Cc1cc(C#N)cc(C)c1Oc1nc(Nc2ccc(C#N)cc2)nc(N)c1Br` [ETRAVIRINE] was run?
Its IC50 is 90 nM.
